Pooled drug test results. Numbers come from NIAID ChemDB, via PubChem.

Shared fields: whole-cell or culture tests; agent: HIV-1; cells: CEM; endpoint: EC50

Conditions beyond the fields shown may differ between rows. An empty or dashed field is not shown. ECn: concentration that inhibits the pathogen or its effect by n%.

COc1ccc(/C=N/N=C(/N)NO)cc1OC ; strain: IIIB ; read by: cytopathic effect ; value: 19 µg/mL
CCc1c(Sc2ccccc2)n(COCc2ccccc2)c(=O)[nH]c1=O ; read by: antigen ; value: <0.04 µM
OC[C@H]1O[C@@H](c2ccccc2)[C@H](O)[C@@H]1O ; strain: IIIB ; read by: cytopathic effect ; value: >100 µg/mL
O=c1[nH]c(=O)n([C@H]2CCC[C@@H]2CO)cc1I ; read by: cytopathic effect ; value: >100 µg/mL
C=CCN(CC(=O)N[C@H](C(=O)N[C@H](C(=O)OC)C(C)C)[C@@H](C)CC)C(=O)[C@H](Cc1ccccc1)NC(=O)[C@H](C)NC(=O)OC(C)(C)C ; strain: LAI ; read by: cytopathic effect / MTT ; value: 8.15 µg/mL
O=c1[nH]c(=O)n([C@H]2CCC[C@H]2CO)cc1I ; read by: cytopathic effect ; value: 12.5 µg/mL
Nc1nc2c(ncn2[C@@H]2O[C@H](CO)C[C@@H]2F)c(=O)[nH]1 ; strain: LAI ; read by: XTT ; value: 20 µM
CCN(C)c1ncnc2c1ncn2C[C@@H](C)OCP(=O)(O)O ; strain: IIIB ; read by: cytopathic effect / MTT ; value: 5.5 ± 2.1 µg/mL
CC1(C)[C@@H](CCO)C[C@H]1n1cnc2c(N)nc(N)nc21 ; read by: cytopathic effect ; value: >20 µg/mL
Nc1nc2c(ncn2[C@H]2CC[C@@H](CO)O2)c(=O)[nH]1 ; strain: LAI ; read by: XTT ; value: 2 µM
O=C1C(Cl)=C(C2=C(Cl)C(=O)c3ccccc3C2=O)C(=O)c2ccccc21 ; strain: IIIB ; read by: cytopathic effect / MTT ; value: 3.3 µM
C=CCNc1nc(N)nc2c1ncn2CCOCP(=O)(O)O ; strain: IIIB ; read by: cytopathic effect / MTT ; value: >0.0032 µg/mL
N#Cc1cc2c(cc1Cl)Sc1nccn1S2(=O)=O ; read by: cytopathic effect / XTT ; value: >200 µM
O=c1ccn([C@H]2CCC[C@@H]2CO)c(=O)[nH]1 ; read by: cytopathic effect ; value: >100 µg/mL
Cc1sccc1C(=S)Nc1ccc(Cl)c(OCC=C(Cl)Cl)c1 ; strain: Nevirapine-resistant isolate (RT V106A) ; mutations: RT-V106A ; read by: syncytia ; value: 0.065 µg/mL
C=CCN(C(=O)[C@H](Cc1ccccc1)NC(=O)[C@H](C)NC(=O)OC(C)(C)C)C(C)C(=O)N[C@H](C(=O)N[C@H](C(=O)OC)C(C)C)[C@@H](C)CC ; strain: LAI ; read by: RT activity ; value: 60 µg/mL
S=c1[nH]c(=S)c2c3c(sc2[nH]1)CCCC3 ; read by: absorbance ; value: >6.5 µM
Cc1cc(Cl)cc2c1S(=O)(=O)n1ccnc1S2 ; read by: cytopathic effect / XTT ; value: >200 µM
O=C1C(=O)c2ccccc2C(O)=C1C1=C(I)C(=O)c2ccccc2C1=O ; strain: IIIB ; read by: cytopathic effect / MTT ; value: 1.8 µM
NC(=O)C(N)Cc1ccccc1 ; strain: IIIB ; value: 1000 µM
Nc1nc(N2CCCCC2)c2ncn(CCOCP(=O)(O)O)c2n1 ; strain: IIIB ; read by: cytopathic effect / MTT ; value: >4 µg/mL
C[C@H](CS(C)(=O)=O)C(=O)N[C@@H](Cc1ccccc1)[C@H](O)CN1C[C@H]2CCCC[C@H]2C[C@H]1C(=O)NC(C)(C)C ; read by: cytopathic effect / MTT ; value: 0.052 µM
Cc1occc1C(=S)Nc1ccc(Cl)c(SCC=C(Cl)Cl)c1 ; strain: IIIB ; read by: syncytia ; value: 0.005 µg/mL
CNC(=O)CN ; strain: IIIB ; value: 500 µM
Cc1cnc2n1S(=O)(=O)c1cc(C(=O)O)c(Cl)cc1S2 ; read by: cytopathic effect / XTT ; value: >200 µM
COc1ccc(S(=O)(=O)N(CC2CCCC2)C[C@@H](O)CN(CCc2ccc(O)c(O)c2)C(=O)O[C@H]2CCOC2)cc1 ; strain: IIIB ; read by: p24 ; value: <0.1 µM
CC[C@H](C)[C@H](NC(=O)C(C)N(C(=O)[C@H](Cc1ccccc1)NC(=O)[C@H](C)NC(=O)OC(C)(C)C)C(Cl)CCl)C(=O)N[C@H](C(=O)OC)C(C)C ; strain: LAI ; read by: cytopathic effect / MTT ; value: >100 µg/mL
CC(C)(C)c1cc(CS(=O)(=O)N(CC2CCCC2)C[C@@H](O)CN(CCc2ccccc2)C(=O)c2ccccc2)no1 ; strain: IIIB ; read by: p24 ; value: <1 µM
COC1=C(C2=C(Cl)C(=O)c3ccccc3C2=O)C(=O)c2ccc3c(c2C1=O)C=C[C@@](C)(CCC=C(C)C)O3 ; strain: IIIB ; read by: cytopathic effect / MTT ; value: 2.3 µM
COc1ccc(/C=N/N=C(\N)NO)cc1F ; strain: IIIB ; read by: cytopathic effect ; value: 6.6 µg/mL
COc1ccc(S(=O)(=O)N(CC(C)C)C[C@@H](O)CCN(CC2CCCC2)S(=O)(=O)CC2COCO2)cc1 ; strain: IIIB ; read by: p24 ; value: <1 µM
COC1=C(C2=C(Br)C(=O)c3cc(OC)ccc3C2=O)C(=O)c2ccccc2C1=O ; strain: IIIB ; read by: cytopathic effect / MTT ; value: 1.1 µM
Cc1cn([C@H]2CC[C@@H](CO)O2)c(=O)[nH]c1=S ; read by: cytopathic effect ; value: 35 µM
CC(=O)N[C@@H](Cc1cccc2ccccc12)C(=O)N[C@H](C(=O)N[C@@H](CC(C)C)[C@@H](O)CC(=O)N[C@@H](CC(C)C)C(=O)N[C@@H](Cc1ccccc1)C(N)=O)C(C)C ; value: 1.09 µM
COc1ccc2c(c1)C(=O)C(C1=C(O)c3ccccc3C(=O)C1=O)=C(Cl)C2=O ; strain: IIIB ; read by: cytopathic effect / MTT ; value: 6.2 µM
Cc1sccc1C(=O)Nc1ccc(Cl)c(OCC=C(Cl)Cl)c1 ; strain: IIIB ; read by: syncytia ; value: 0.09 µg/mL
Nc1ccc(C(=O)NC23CC4CC(CC(C4)C2)C3)cc1 ; strain: IIIB ; read by: syncytia ; value: >73.5 µM
C#CCO/N=C/c1cc(NC(=O)c2ccoc2C)ccc1Cl ; strain: IIIB ; read by: syncytia ; value: 3.3 µM
CO[C@@H]1[C@H](O)[C@@H](CO)O[C@H]1c1ccccc1 ; strain: IIIB ; read by: cytopathic effect ; value: >100 µg/mL
CC1(C)[C@@H](CCO)C[C@H]1n1cnc2c(=O)[nH]c(N)nc21 ; read by: cytopathic effect ; value: >100 µg/mL
CC(C)CN(CCC(O)CNc1cscc1S(=O)(=O)c1ccccc1)S(=O)(=O)c1ccccc1 ; strain: IIIB ; read by: p24 ; value: <1 µM
CC[C@H](C)[C@H](NC(=O)C(C)N(C(=O)[C@H](Cc1ccccc1)NC(=O)[C@H](C)NC(=O)OC(C)(C)C)C(Br)CBr)C(=O)N[C@H](C(=O)OC)C(C)C ; strain: LAI ; read by: RT activity ; value: 200 µg/mL
CC(C)CC(N)C(N)=O ; strain: IIIB ; value: 500 µM
COc1ccc(NC(=O)C2=C(C)OCCS2)cc1OCC=C(Cl)Cl ; strain: TIBO R82913-resistant (RT K103N) ; mutations: RT-K103N ; read by: syncytia ; value: 10 µg/mL
C[C@H](CC1CNC2C1CC(N)CN2N)OCP(=O)(O)O ; strain: IIIB ; read by: cytopathic effect / MTT ; value: >100 µg/mL
Cc1cccc(C)c1N1C(=O)c2ccc(N)cc2C1=O ; strain: IIIB ; read by: syncytia ; value: >30 µM
CC(C)=CCOc1cc(NC(=S)c2ccoc2C)ccc1Cl ; strain: IIIB ; read by: syncytia ; value: 0.006 µM
CC(C)CN(CC(O)CN(CC(C)C)S(=O)(=O)c1ccc(O)cc1)S(=O)(=O)c1ccccc1 ; strain: IIIB ; read by: p24 ; value: <1 µM
Cc1cccc(C)c1N1C(=O)c2ccc(Cl)cc2C1=O ; strain: IIIB ; read by: syncytia ; value: >138 µM
C=C(Cl)COc1cc(NC(=S)c2ccoc2C)ccc1C ; strain: Nevirapine-resistant isolate (RT V106A) ; mutations: RT-V106A ; read by: syncytia ; value: 0.67 µg/mL
COc1ccc(S(=O)(=O)N(CC(C)C)C[C@@H](O)CCN(CCC2CCCC2)C(=O)O[C@H]2CCOC2)cc1 ; strain: IIIB ; read by: p24 ; value: <1 µM
CC(C)C[C@H](N)C(=O)O ; strain: IIIB ; value: 500 µM
Cc1occc1C(=S)Nc1ccc(Cl)c(OCC=C(Cl)Cl)c1 ; strain: TSAO-m3T-resistant (RT E138K) ; mutations: RT-E138K ; read by: syncytia ; value: 0.04 µg/mL
CC1(C)[C@@H](CCO)C[C@H]1n1nnc2c(=O)[nH]cnc21 ; read by: cytopathic effect ; value: >100 µg/mL

For reference, 4 entries again:

structure,strain,mutations,read by,value
CC(C)(C)c1cc(CS(=O)(=O)N(CC2CCCC2)C[C@@H](O)CN(CCc2ccccc2)C(=O)c2ccccc2)no1,IIIB,-,p24,<1 µM
COc1ccc(/C=N/N=C(/N)NO)cc1OC,IIIB,-,cytopathic effect,19 µg/mL
Cc1cnc2n1S(=O)(=O)c1cc(C(=O)O)c(Cl)cc1S2,-,-,cytopathic effect / XTT,>200 µM
Nc1ccc(C(=O)NC23CC4CC(CC(C4)C2)C3)cc1,IIIB,-,syncytia,>73.5 µM